What follows are compounds tested on intracellular L. donovani amastigotes (assay: Luminescent-based evaluation of intracellular anti-leishmanial activity in THP-1 macrophages). Details: 24h LC50 / Lum IC50 (Supplemental Table 2).
Assay type: cell-based, Leishmania donovani
Method: Luminescent strains, L. donovani LV82 expressing firefly luciferase (a kind gift from Dr. Abhay Satoskar, Ohio State University) and L. mexicana (NR-51210, ATCC) expressing renilla luciferase were used to evaluate the effect of the compounds in intracellular and extracellular conditions. Wild-type L. donovani LV82 (ATCC) were used for Giemsa staining based experiments. All parasites were cultured at 25°C and 5% CO2 in M199 media (Corning) supplemented with 10% FBS, 1% penicillin/streptomycin, and hemin (0.01 mg/mL), and used in experiments up to passage 15.
THP-1 cells were seeded in a 96 well plate (25,000 cells/well) overnight then differentiated with 150 nM phorbol 12-myristate 13-acetate (PMA) over 72 hours (Supplemental Figure 1). […] Briefly, promastigotes of a known cell density were resuspended in RPMI media (with 10% FBS, 1% P/S and 0.05 mM β-mercaptoethanol) and incubated with adhered THP-1 cells over 18 hours. After infection, cells were washed three times with fresh media to remove extracellular promastigotes.
Infected macrophages were then treated with compounds solubilized in DMSO ranging from 0.1-10 μM in concentrations. After 72 hours of treatment, the viability of the amastigotes within macrophages was determined using Promega firefly luminescence assay (Cat E1500) or Pierce Renilla luciferase assay (Cat 16166) for L. donovani and L. mexicana strains, respectively. Briefly, media was removed, and cells were lysed with the assay lysis buffer. The luciferase substrate was then incubated with the lysed cells for 10 min at room temperature and luminescence of live Leishmania was measured in a white opaque 96 well plate using a Biotek plate reader.

Structure (SMILES) | Selectivity
CC(C)(C)OC(=O)NC1CCN(C(=O)c2ccc(-n3cc(C(F)(F)F)nc3-c3ccc(-c4ccc(C(F)(F)F)cc4)cc3)c(F)c2)C1 (stereo not drawn) [Compound 182] | 3.0
CC(=O)c1ccc(-n2cc(C(F)(F)F)nc2-c2ccc(-c3ccccc3)cc2)cc1 [Compound 184] | > 10
NS(=O)(=O)c1ccc(-n2nc(C(F)(F)F)cc2-c2ccc(-c3ccc(C(F)(F)F)cc3)cc2)cc1 [Compound 188] | 2.9
CNS(=O)(=O)Cc1ccc(-n2nc(C(F)(F)F)cc2-c2ccc(-c3ccc(C(F)(F)F)cc3)cc2)cc1 [Compound 191] | < 1.2
NCC(=O)Nc1ccc(-n2cc(C(F)(F)F)nc2-c2ccc(Br)cc2)cc1 [Compound 195] | < 3.9
NC1CCN(C(=O)c2ccc(-n3cc(C(F)(F)F)nc3-c3ccc(-c4ccc(C(F)(F)F)cc4)cc3)c(F)c2)C1 (stereo not drawn) [Compound 199] | 7.2
CC(C)(C)OC(=O)NC1CCN(c2ccc(-n3nc(C(F)(F)F)cc3C(C)(C)C)cc2)C1 (stereo not drawn) [Compound 202] | > 5.9
CC(C)(C)c1cc(C(F)(F)F)nn1-c1ccc(N2CCC(N)C2)cc1 (stereo not drawn) [Compound 203] | 4.1
Cl.NC1CCN(c2ccc(-n3nncc3-c3ccc(C(F)(F)F)cc3)cc2)C1 (stereo not drawn) [Compound 204] | < 3.7
Cl.FC(F)(F)c1ccc(-c2ccc(-c3cc(C(F)(F)F)nn3-c3ccc(N4CCNCC4)cc3)cc2)cc1 [Compound 208] | 5.4
Cl.FC(F)(F)c1cc(-c2ccc(-c3cccs3)cc2)n(-c2ccc(N3CCNCC3)cc2)n1 [Compound 209] | 3.4
Cl.FC(F)(F)c1cc(-c2ccc(-c3ccsc3)cc2)n(-c2ccc(N3CCNCC3)cc2)n1 [Compound 210] | 4.3
Cl.FC(F)(F)c1cc(-c2ccc(C3CC3)cc2)n(-c2ccc(N3CCNCC3)cc2)n1 [Compound 211] | 6.3
FC(F)(F)c1ccc(-c2ccc(-c3cc(C(F)(F)F)nn3-c3ccc(N4CCNCC4)cc3)cc2)cc1 [Compound 220] | 11.8
CC(C)(C)OC(=O)NC1CCN(c2ccc(-n3nc(C4CCCCC4)cc3C(F)(F)F)cc2)C1 (stereo not drawn) [Compound 229] | 1.5
CC(C)(C)OC(=O)NC1CCN(c2ccc(-n3nc(C(F)(F)F)cc3C3CCCCC3)cc2)C1 (stereo not drawn) [Compound 230] | < 1.0
CN(C)c1ccc(-c2cc(C(F)(F)F)nn2-c2ccc(N3CCC(N)C3)cc2)cc1 (stereo not drawn) [Compound 231] | 6.2
NC1CCN(c2ccc(-n3nc(C4CCCCC4)cc3C(F)(F)F)cc2)C1 (stereo not drawn) [Compound 232] | 5.6
FC(F)(F)c1ccc(-c2ccc(-c3nc(C(F)(F)F)cn3-c3ccc(NC4CCNC4)cc3)cc2)cc1 (stereo not drawn) [Compound 246] | 1.4
NC1CCN(c2ccc(-n3nc(C(F)(F)F)cc3-c3ccc(F)cc3)cc2)C1 (stereo not drawn) [Compound 248] | 5.6
FC(F)(F)c1cc(-c2cccnc2)n(-c2ccc(Br)cc2)n1 [Compound 249] | < 5.0
FC(F)(F)c1ccc(-c2cc(C(F)(F)F)nn2-c2ccc(NC3CCNC3)cc2)cc1 (stereo not drawn) [Compound 252] | 6.2
CC(C)(C)OC(=O)N1CCC(Nc2ccc(-n3nc(C(F)(F)F)cc3-c3ccccc3C(F)(F)F)cc2)C1 (stereo not drawn) [Compound 259] | < 2.4
COc1ccc(-c2cc(C(F)(F)F)nn2-c2ccc(NC3CCNC3)cc2)cc1OC (stereo not drawn) [Compound 260] | 3.2
FC(F)(F)c1cc(-c2ccc(Cl)c(Cl)c2)n(-c2ccc(NC3CCNC3)cc2)n1 (stereo not drawn) [Compound 261] | 7.3
FC(F)(F)c1cc(-c2ccco2)n(-c2ccc(NC3CCNC3)cc2)n1 (stereo not drawn) [Compound 273] | 3.2
FC(F)(F)c1cc(C(F)(F)F)n(-c2ccc(Br)cc2)n1 [Compound 276] | < 0.6

Structure (SMILES) | Selectivity
Cl.NC1CCN(c2ccc(-n3nc(C(F)F)cc3-c3ccc(-c4ccc(C(F)(F)F)cc4)cc3)cc2)C1 (stereo not drawn) [Compound 281] | 7.2
FC(F)(F)c1ccc(-c2cc(C(F)(F)F)nn2CCNC2CCN(Cc3ccccc3)C2)cc1 (stereo not drawn) [Compound 294] | < 2.8
FC(F)(F)c1ccc(-c2nc(C(F)(F)F)cn2-c2ccc(NC3CCNC3)cc2)cc1 (stereo not drawn) [Compound 296] | 4.3
NCC(=O)Nc1ccc(-n2cc(C(F)(F)F)nc2-c2ccc(OC(F)(F)F)cc2)cc1 [Compound 299] | < 3.2
FC(F)(F)c1cc(C2CCCCC2)n(-c2ccc(NC3CCNC3)cc2)n1 (stereo not drawn) [Compound 312] | 5.3
FC(F)(F)c1cc(C(F)(F)F)n(-c2ccc(NC3CCNC3)cc2)n1 (stereo not drawn) [Compound 314] | 8.0
CC(C)c1cc(C(F)(F)F)nn1-c1ccc(NC2CCNC2)cc1 (stereo not drawn) [Compound 315] | 7.6
CCc1cc(C(F)(F)F)nn1-c1ccc(NC2CCNC2)cc1 (stereo not drawn) [Compound 318] | 14.8
FC(F)(F)c1cc(C2CCCCC2)n(-c2ccc(NC3CCN(Cc4ccccc4)CC3)cc2)n1 [Compound 321] | 4.7
N#Cc1ccc(CN2CCC(Nc3ccc(-n4nc(C(F)(F)F)cc4C4CCCCC4)cc3)CC2)cc1 [Compound 323] | 3.2
NC1CCN(c2ccc(-n3nc(C(F)(F)F)cc3C3CCCCC3)cc2)CC1 [Compound 324] | 14.2
FC(F)(F)c1cn(-c2ccc(OC3CCNC3)cc2)c(-c2ccc(-c3ccccc3)cc2)n1 (stereo not drawn) [Compound 328] | 4.3
CC(C)(C)c1nc(C(F)(F)F)cn1-c1ccc(NC2CCNC2)cc1 (stereo not drawn) [Compound 330] | > 8.1
NCC(=O)Nc1ccc(-n2nc(C(F)(F)F)c3c2CCCC3)cc1 [Compound 331] | 4.7
O=C1CN(c2ccc(-n3cc(C(F)(F)F)nc3-c3ccc(C(F)(F)F)cc3)cc2)CCN1 [Compound 332] | 3.9
FC(F)(F)c1cc(C2CCCCC2)n(-c2ccc(N3CCC(NCc4ccccc4)CC3)cc2)n1 [Compound 336] | 6.6
Fc1cccc(CNC2CCN(c3ccc(-n4nc(C(F)(F)F)cc4C4CCCCC4)cc3)CC2)c1 [Compound 337] | 9.3
FC(F)(F)c1cc(C2CCCCC2)n(-c2ccc(NC3CCNCC3)cc2)n1 [Compound 339] | 10.4
NCC(=O)Nc1ccc(-n2nc(C(F)(F)F)cc2C2CCCCC2)cc1 [Compound 341] | 6.6
O=C(CNCc1cccc(F)c1)Nc1ccc(-n2nc(C(F)(F)F)cc2C2CCCCC2)cc1 [Compound 352] | < 2.9
O=C(CNCc1ccccc1)Nc1ccc(-n2nc(C(F)(F)F)cc2C2CCCCC2)cc1 [Compound 353] | 4.2
O=C(CNCc1ccc(O)cc1)Nc1ccc(-n2nc(C(F)(F)F)cc2C2CCCCC2)cc1 [Compound 355] | 10.5
FC(F)(F)c1cc(C2CCCCC2)n(-c2ccc(NC3CCN(Cc4ccccc4)C3)cc2)n1 (stereo not drawn) [Compound 356] | 7.6
Fc1cccc(CN2CCC(Nc3ccc(-n4nc(C(F)(F)F)cc4C4CCCCC4)cc3)C2)c1 (stereo not drawn) [Compound 357] | 10.7
N#Cc1ccc(CN2CCC(Nc3ccc(-n4nc(C(F)(F)F)cc4C4CCCCC4)cc3)C2)cc1 (stereo not drawn) [Compound 358] | < 1.3
Oc1ccc(CNC2CCN(c3ccc(-n4nc(C(F)(F)F)cc4C4CCCCC4)cc3)C2)cc1 (stereo not drawn) [Compound 362] | 9.0
FC(F)(F)c1cc(C2CCCCC2)n(-c2ccc(N3CCC(NCc4ccccc4)C3)cc2)n1 (stereo not drawn) [Compound 364] | 4.5
